According to patent US10036048B1, “Process for obtaining a naphthoquinone derivative from Streptomyces sp” (KING SAUD UNIVERSITY, priority 2017, dated 2018):

Test system: A549 lung adenocarcinoma cancer cell line
Experiment: Cytotoxic activity (MTT, absorbance at 540 nm)
Assay type: cell-based, human
Description: A549 lung adenocarcinoma cancer cell line was obtained from the National Institute of Cell Sciences, Pune. A549 cell line was maintained in complete tissue culture medium Dulbecco's Modified Eagle's Medium with 10% Fetal Bovine Serum and 2 mM L-Glutamine, along with antibiotics (about 100 International Unit/mL of penicillin, 100 μg/mL of streptomycin) with the pH adjusted to 7.2. The cytotoxicity was determined according to the method of Balachandran et al., (2013) with some changes. Cells (5000 cells/well) were seeded in 96 well plates containing medium with different concentrations such as 100, 80, 60, 40, 20, and 10 μg/mL. The cells were cultivated at 37° C. with 5% CO2 and 95% air in 100% relative humidity. After various durations of cultivation, the solution in the medium was removed. An aliquot of 100 μL of medium containing 1 mg/mL of 3-(4,5-dimethylthiazol-2-yl)-2,5-diphenyl-tetrazolium bromide was loaded in the plate. The cells were cultured for 4 h and then the solution in the medium was removed. An aliquot of 100 μL of DMSO was added to the plate, which was shaken until the crystals were dissolved. The cytotoxicity against cancer cells was determined by measuring the absorbance of the converted dye at 540 nm in an Enzyme linked immune sorbant assay (ELISA) reader. Cytotoxicity of each sample was expressed as the half maximal inhibitory concentration (IC50) value. The IC50 value is the concentration of test sample that causes 50% inhibition of cell growth, averaged from three replicate experiments.

## CN1C(=O)N2CC(C)(OC3=C2C(=O)c2ccccc2C3=O)c2ccccc21 (stereo not shown) [C-5, Bluemomycin]
5 μg/mL
  Compound Mean ± S.D (absorbance at 540 nm): 0.565 ± 0.00384
10 μg/mL
  Compound Mean ± S.D (absorbance at 540 nm): 0.465 ± 0.00376
20 μg/mL
  Compound Mean ± S.D (absorbance at 540 nm): 0.305 ± 0.00346
40 μg/mL
  Compound Mean ± S.D (absorbance at 540 nm): 0.251 ± 0.00622
60 μg/mL
  Compound Mean ± S.D (absorbance at 540 nm): 0.198 ± 0.00353
80 μg/mL
  Compound Mean ± S.D (absorbance at 540 nm): 0.135 ± 0.00376
100 μg/mL
  Compound Mean ± S.D (absorbance at 540 nm): 0.071 ± 0.00203
